Compound potency records, mixed from different reports. Data source: NIAID ChemDB in PubChem.

Common to all: growth or infection tests; organism: HIV-1; measure: fold resistance

Fold resistance: result on the changed form divided by that on wild type. Conditions beyond the fields shown may differ between rows. Blank or dashed fields: not listed here. Two numbers with a dash give a range or band.

structure | mutations | cells | read by | strain or isolate | value
C[C@@H]1O[C@@H]2OCCC[C@@H]2[C@@H]1OC(=O)N[C@@H](Cc1ccccc1)[C@H](O)CN1C[C@H]2CCCC[C@H]2C[C@H]1C(=O)NC(C)(C)C | PR-L10I K14R R41K M46I I54V L63P A71V V82A L90M I93L | PBMC | p24 | TM | >42
Nc1ccn([C@@H]2CO[C@H](CO)S2)c(=O)n1 | RT-M184I | C8166 | p24 | RF | 5.09
CCc1cccc2c1nc(-c1c(F)cccc1F)n2Cc1c(F)cccc1F | RT-K101E | MT-4 | cytopathic effect / MTT |  | 17.1
CCCCCCCSc1nsc(NC(=O)Nc2ccccc2)n1 | DS-resistant | MT-4 | cytopathic effect | NL4-3 | 1.32
Cc1cn([C@@H]2O[C@H](CO[Si](C)(C)C(C)(C)C)[C@]3(C(N)=CS(=O)(=O)N3C)[C@H]2O[Si](C)(C)C(C)(C)C)c(=O)n(C)c1=O | RT-K103N | CEM | cytopathic effect |  | >100
CC(C)CN(C[C@@H](O)[C@H](Cc1ccccc1)NC(=O)O[C@H]1CCOC1)S(=O)(=O)c1ccc(N)cc1 | PR-L10I I15V K20R M36I M46L I54V K55R I62V L63P K70Q V82A L89M | PBMC | p24 | Clinical isolate | 11.2
O=c1[nH]cnc2c1ncn2[C@H]1CC[C@@H](CO)O1 | INTG-G140S | MT-2 |  | NL4-3 | 0.3
CC(=O)Nc1cccc2c1nc(-c1c(F)cccc1F)n2Cc1c(F)cccc1F | RT-K101E | MT-4 | cytopathic effect / MTT |  | >12.5
CC(C)(C)NC(=O)[C@@H]1C[C@@H]2CCCC[C@@H]2CN1C[C@@H](O)[C@H](Cc1ccccc1)NC(=O)[C@H](CC(N)=O)NC(=O)c1ccc2ccccc2n1 | PR-L63P | MT-4 | p24 | NL4-3 | 2
Nc1ccn([C@H]2CC[C@@H](CO)O2)c(=O)n1 | RT-K65R | MT-2 | p24 / ELISA | HxB2-MT 65 (RT-K65R | 4.43
Cc1cn([C@H]2C[C@H](N=[N+]=[N-])[C@@H](CO)O2)c(=O)[nH]c1=O | RT-T215Y K219Q | PBMC | p24 |  | 8.5
CCCN(C)C(=O)Oc1nsnc1-c1c(Cl)cccc1Cl | RT-Y181C | MT-4 | cytopathic effect / MTT | IIIB-R (RT-Y181C) | 200
CC(C)(C)NC(=O)[C@@H]1CN(C(C)(C)c2cc3cnccc3o2)CCN1C[C@@H](O)C[C@@H](Cc1ccccc1)C(=O)N[C@H]1c2ccccc2C[C@H]1O | PR-L10I S37N R41K M46I I54V I62V L63P A71V V77I V82A L90M I93L |  |  | Q-60C(PR-L10I S37N R41K M46I I54V I62V L63P A71V V77I V82A L90M I93L) | >66.7
CC[C@]1(CO)O[C@@H](n2cc(C)c(=O)[nH]c2=O)C[C@@H]1O | RT | HeLa | β-galactosidase | RTMDR | >1
CCN1c2ncc(CCOc3ccc(C(=O)O)c4ccccc34)cc2C(=O)N(C)c2ccc(Cl)nc21 | RT-K103N Y181C | C8166 | p24 |  | 1
CN(C)C(=O)Oc1nsnc1-c1c(Cl)cccc1Cl | RT-Y181C | MT-4 | cytopathic effect / MTT | IIIB-R (RT-Y181C) | >950
CCN1c2ncc(CCOc3ccc(C(=O)O)c4c3CCCC4)cc2C(=O)N(C)c2cccnc21 | RT-V106A | C8166 | p24 |  | 1–10
Cn1c2ccccc2c2c1cc(C#N)c(=O)n2-c1ccc([N+](=O)[O-])cc1 | RT-M41L S68N G112S M184V | HeLa | luciferase | Recombinant | 36.5
CC(C)CN(C[C@@H](O)[C@H](Cc1ccccc1)NC(=O)O[C@H]1CCO[C@H]2OCC[C@H]21)S(=O)(=O)c1ccc2nc(NC3CC3)sc2c1 | L10I I15V K20R L24I V32I M36I M46I I54V I62V L63P K70Q V82A L88M | MT-4 | p24 / luminescence | NL4-3 | 57
CC(C)CN(C[C@@H](O)[C@H](Cc1ccccc1)NC(=O)O[C@H]1CCOC1)S(=O)(=O)c1ccc(N)cc1 | PR-L10I K43T M46I I54V L63P A71V V82A L90M Q92K | PBMC | p24 | MM | 27
Cc1cn([C@@H]2O[C@H](CO[Si](C)(C)C(C)(C)C)[C@]3(C(N)=CS(=O)(=O)N3C)[C@H]2O[Si](C)(C)C(C)(C)C)c(=O)n(C(=O)OC(C)(C)C)c1=O | RT-E138K | CEM | cytopathic effect |  | >2.85
Nc1nc2c(ncn2[C@H]2CO[C@@H](CO)O2)c(=O)[nH]1 | RT-Q151M A62V | MT-2 | cytopathic effect / MTT |  | >23
CCNc1cccnc1N1CCN(C(=O)c2cc3cc(OC)ccc3[nH]2)CC1 | TIBO-resistant | PBL | syncytia | D34 | >3330
O=c1[nH]cnc2c1ncn2[C@H]1CC[C@@H](CO)O1 | RT-T215Y K219Q | PBMC | p24 |  | 1.375
CCN[C@H]1CO[C@@H]2OCC[C@H](OC(=O)N[C@@H](Cc3ccccc3)[C@H](O)CN(CC(C)C)S(=O)(=O)c3ccc4nc(NC5CC5)sc4c3)[C@@H]21 | L10I I15V K20R L24I V32I M36I M46I I54V I62V L63P K70Q V82A L88M | MT-4 | p24 / luminescence | NL4-3 | 0.5
Fc1cccc(F)c1Cn1c(-c2c(F)cccc2F)nc2c(Br)cccc21 | RT-L100I | MT-4 | cytopathic effect / MTT |  | 0.6
Cc1cn([C@H]2C[C@H](N=[N+]=[N-])[C@@H](CO)O2)c(=O)[nH]c1=O | RT-Q151M V75I | MT-2 | cytopathic effect / MTT |  | >20
COC(=O)c1cccc2c1nc(-c1c(F)cccc1F)n2Cc1c(F)cccc1F | RT-Y181C | MT-4 | cytopathic effect / MTT |  | 16.8
COc1ccc(S(=O)(=O)N(CC(C)C)C[C@@H](O)[C@H](Cc2ccccc2)NC(=O)O[C@H]2CO[C@H]3OCC[C@H]32)cc1 | PR-L10I V11I T12E I15V L19I R41K M46L L63 A71T V82A L90M | PBMC | p24 | Clinical isolate | 2
CCCCN(C)C(=O)Oc1nsnc1-c1c(Cl)cccc1Cl | RT-Y181C | MT-4 | cytopathic effect / MTT | IIIB-R (RT-Y181C) | 365
Nc1ccn([C@H]2CC[C@@H](CO)O2)c(=O)n1 | INTG-G140S | MT-2 |  | NL4-3 | 0.25
CCCCCCN(C)C(=O)Oc1nsnc1-c1c(Cl)cccc1Cl | RT-Y181C | MT-4 | cytopathic effect / MTT | IIIB-R (RT-Y181C) | >158
Cc1cn([C@H]2C[C@H](N=[N+]=[N-])[C@@H](CO)O2)c(=O)[nH]c1=O | RT-V118I M184V | HeLa | luciferase | Recombinant | 0.4
C#C[C@]1(CO)O[C@@H](n2cc(C)c(=O)[nH]c2=O)C[C@@H]1O | RT M41L T69SSG insertion T215Y | HeLa | β-galactosidase | RT-M41L T69SSG T215Y | 1.22
N#Cc1cc2[nH]c3ccccc3c2n(-c2ccc([N+](=O)[O-])cc2)c1=O | RT-Y181C | HeLa | luciferase | NNRTI-resistant | 2.9
CN[C@H]1CO[C@@H]2OCC[C@H](OC(=O)N[C@@H](Cc3ccccc3)[C@H](O)CN(CC(C)C)S(=O)(=O)c3ccc4nc(NC5CC5)sc4c3)[C@@H]21 | L10F M46I I54V V82A | MT-4 | p24 / luminescence | NL4-3 | 1.4
CCc1cc(NCc2nc3c(Cl)ccc(Cl)c3o2)c(=O)[nH]c1C | TIBO-resistant | PBL | syncytia | D34 | ~300
CC[C@H]1C(=O)Nc2ccc(F)cc2N1C(=O)OC(C)C | RT-L100I | CEM | cytopathic effect | NNRTI-resistant | 20.5
CCN1c2ncc(CCOc3ccc(C(=O)O)c4ccccc34)cc2C(=O)N(C)c2cccnc21 | RT-K103N Y181C | C8166 | p24 |  | 1
Cc1cn([C@H]2C[C@H](N=[N+]=[N-])[C@@H](CO)O2)c(=O)[nH]c1=O | RT-K65R S68G | MT-2 | p24 / ELISA | HXB2-MT 65+68 (RT K65R S68G) | 1.67
Cc1cc(S(N)(=O)=O)ccc1NC(=O)COc1ccc(Cl)cc1C(=O)c1cc(Cl)cc(C#N)c1 | RT-V106A | MAGI | β-galactosidase | NNRTI-resistant (RT V106A) | 6.54
CN(C)C(=O)Oc1nsnc1-c1ccccc1 | RT-Y181C | MT-4 | cytopathic effect / MTT | IIIB-R (RT-Y181C) | >7.24
Nc1cccc2c1nc(-c1c(F)cccc1F)n2Cc1c(F)cccc1F | RT-D67N K70R L100I T215Y K219Q | MT-4 | cytopathic effect / MTT | RT-4XAZT+L100I | 0.75
Cc1cn([C@H]2C[C@H](N=[N+]=[N-])[C@@H](CO)O2)c(=O)[nH]c1=O | RT A62V 69SS K70R E79K V118I M184V E203K L210W T215Y | MT-4 | cytopathic effect | NL4-3 | >1500
Cc1cn([C@@H]2O[C@H](CO[Si](C)(C)C(C)(C)C)C3(OS(=O)(=O)C=C3N)[C@H]2O[Si](C)(C)C(C)(C)C)c(=O)n(C)c1=O | RT-V106A | CEM | cytopathic effect | NNRTI-resistant | >180
Cc1cn([C@H]2C[C@H](N=[N+]=[N-])[C@@H](CO)O2)c(=O)[nH]c1=O | RT-Y181C | MT-4 | cytopathic effect / MTT | IIIB-R (RT-Y181C) | 0.697
Nc1ccn([C@H]2CC[C@@H](CO)O2)c(=O)n1 | Dideoxynucleoside-resistant (RT L74V) | HELA/CD4 + HELA CD4+ | plaque count | HXB2 | 3.8
CC(C)(C)NC(=O)[C@@H]1C[C@@H]2CCCC[C@@H]2CN1C[C@@H](O)[C@H](Cc1ccccc1)NC(=O)[C@H](CC(N)=O)NC(=O)c1ccc2ccccc2n1 | PR-L10I K14R R41K M46L I54V L63P A71V V82A L90M I93L | PBMC | p24 | Clinical isolate | 19
CCN1c2ncc(CCOc3ccc(C(=O)O)c4ccccc34)cc2C(=O)Nc2c(C)cc(Cl)nc21 | RT-K103N Y181C | C8166 | p24 |  | 1
CC(C)CN(C[C@@H](O)[C@H](Cc1ccccc1)NC(=O)[C@H](CC(N)=O)NC(=O)c1ccc2ccccc2n1)C(=O)NC(C)(C)C | PR-L10R M46I L63P V82T I84V | MT-4 | p24 | NL4-3 | 7.5
CCc1cc(CCc2nc3ccccc3o2)c(=O)[nH]c1C | RT-Y181C | MT-4 | cytopathic effect / MTT | IIIB-R (RT-Y181C) | 8550
COC(=O)N[C@H](C(=O)N[C@@H](Cc1ccccc1)[C@@H](O)CN(Cc1ccc(-c2ccccn2)cc1)NC(=O)[C@@H](NC(=O)OC)C(C)(C)C)C(C)(C)C | L23I E34Q K43I M46I I50L G51A L63P A71V V82A T91A | MT-4 | p24 / luminescence | NL4-3 | >213
Nc1ccn([C@H]2C[C@H](O)[C@](CO)(CF)O2)c(=O)n1 | RT-K65R | HeLa | β-galactosidase |  | 0.0708

For reference, 5 entries again:

structure	mutations	cells	read by	strain or isolate	value
CCCN(C)C(=O)Oc1nsnc1-c1c(Cl)cccc1Cl	RT-Y181C	MT-4	cytopathic effect / MTT	IIIB-R (RT-Y181C)	200
Cc1cn([C@H]2C[C@H](N=[N+]=[N-])[C@@H](CO)O2)c(=O)[nH]c1=O	RT-V118I M184V	HeLa	luciferase	Recombinant	0.4
Nc1ccn([C@H]2C[C@H](O)[C@](CO)(CF)O2)c(=O)n1	RT-K65R	HeLa	β-galactosidase		0.0708
CCc1cc(NCc2nc3c(Cl)ccc(Cl)c3o2)c(=O)[nH]c1C	TIBO-resistant	PBL	syncytia	D34	~300
Nc1cccc2c1nc(-c1c(F)cccc1F)n2Cc1c(F)cccc1F	RT-D67N K70R L100I T215Y K219Q	MT-4	cytopathic effect / MTT	RT-4XAZT+L100I	0.75